In patent US20020052481A1 one finds EC50 data, which are given here for one substance.

Test [1] concerns the target HIV-1JR-FL envelope glycoprotein gp120/gp41 on cells (HIV-1JR-FL).
Test [2] has the same target. This is another data set of the same source.

Read-outs that look alike come from different tables or passages of the source.

Broadly, the EC50 is the concentration at which the effect is half-maximal.

Consider ^125I-CD4-gamma2 (Fc fusion), for which the EC50 was 10 to 40 nM in test [1] and 36.4 nM in test [2].
